Measurements reported in PubChem BioAssay AID1259414 (Drosophila RNAi Screening Center, 2018)
The screen tested about 24,000 reagents; shown is an unselected part of those that have a named target and a result. In the full data, about 1,210 (5%) are marked active. 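Inactive calls also include excluded dsRNAs with several or no targets, genes unexpressed in JW18, and well A1, regardless of score.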 A number with no mark means an inactive call.

- Test: 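Host factors increasing or decreasing Wolbachia levels in cultured fly cells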 (primary screen)
- Cells: Drosophila JW18 cells infected with Wolbachia
- Reagents: long dsRNA against Drosophila genes, 0.25 µg dsRNA per well of a 384-well plate
- Time to read-out: 5 days
- Conditions: cells persistently infected with Wolbachia before knock-down; no added drug
- Measurement: 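Imaged fluorescence in situ signal for Wolbachia 23S rRNA per DAPI-counted host cell, given as a robust z-score within each plate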
- Direction: Wolbachia per cell robust z: higher = more Wolbachia per host cell than the plate typical
- Hit rule: 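Hit when robust z is 1.5 or more, or -1.5 or less, in at least two of three replicates; excludes dsRNAs with several or no targets, genes not expressed in JW18 and well A1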

{"predicted target": "CG3213", "dsRNA": "DRSC00576", "Wolbachia per cell robust z, rep 1": 1.71, "Wolbachia per cell robust z, rep 2": 2.42, "Wolbachia per cell robust z, rep 3": 2.65}
{"predicted target": "CG3213", "dsRNA": "DRSC25106", "Wolbachia per cell robust z, rep 1": 1.67, "Wolbachia per cell robust z, rep 2": 3.17, "Wolbachia per cell robust z, rep 3": 2.49}
{"predicted target": "KFase", "dsRNA": "DRSC03258", "Wolbachia per cell robust z, rep 1": -0.5, "Wolbachia per cell robust z, rep 2": 0.6, "Wolbachia per cell robust z, rep 3": -1.89}
{"predicted target": "KFase", "dsRNA": "DRSC30035", "Wolbachia per cell robust z, rep 1": -1.41, "Wolbachia per cell robust z, rep 2": 0.261, "Wolbachia per cell robust z, rep 3": -0.307}
{"predicted target": "Ir56c", "dsRNA": "DRSC06544", "Wolbachia per cell robust z, rep 1": 0.125, "Wolbachia per cell robust z, rep 2": 0.305, "Wolbachia per cell robust z, rep 3": -0.188}
{"predicted target": "Ir56c", "dsRNA": "DRSC26227", "Wolbachia per cell robust z, rep 1": -0.386, "Wolbachia per cell robust z, rep 2": 0.292, "Wolbachia per cell robust z, rep 3": 0.16}
{"predicted target": "CG33467", "dsRNA": "DRSC05525", "Wolbachia per cell robust z, rep 1": -0.777, "Wolbachia per cell robust z, rep 2": 0.536, "Wolbachia per cell robust z, rep 3": -0.576}
{"predicted target": "CG33467", "dsRNA": "DRSC22651", "Wolbachia per cell robust z, rep 1": 0.0877, "Wolbachia per cell robust z, rep 2": 0.551, "Wolbachia per cell robust z, rep 3": -0.606}
{"predicted target": "Vlet", "dsRNA": "DRSC19845", "Wolbachia per cell robust z, rep 1": -1.35, "Wolbachia per cell robust z, rep 2": -0.29, "Wolbachia per cell robust z, rep 3": 0.374}
{"predicted target": "Vlet", "dsRNA": "DRSC26731", "Wolbachia per cell robust z, rep 1": -1.25, "Wolbachia per cell robust z, rep 2": 0.197, "Wolbachia per cell robust z, rep 3": -0.33}
{"predicted target": "Hex-A", "dsRNA": "DRSC18259", "Wolbachia per cell robust z, rep 1": -0.747, "Wolbachia per cell robust z, rep 2": -0.634, "Wolbachia per cell robust z, rep 3": -0.926}
{"predicted target": "Hex-A", "dsRNA": "DRSC25354", "Wolbachia per cell robust z, rep 1": -0.581, "Wolbachia per cell robust z, rep 2": -0.264, "Wolbachia per cell robust z, rep 3": -1.32}
{"predicted target": "CG18469", "dsRNA": "DRSC21838", "Wolbachia per cell robust z, rep 1": -0.606, "Wolbachia per cell robust z, rep 2": -2.41, "Wolbachia per cell robust z, rep 3": -0.554}
{"predicted target": "RpS16", "dsRNA": "DRSC04442", "Wolbachia per cell robust z, rep 1": "1.62 (active)", "Wolbachia per cell robust z, rep 2": 1.22, "Wolbachia per cell robust z, rep 3": 1.91}
{"predicted target": "RpS16", "dsRNA": "DRSC29812", "Wolbachia per cell robust z, rep 1": "2.02 (active)", "Wolbachia per cell robust z, rep 2": 1.44, "Wolbachia per cell robust z, rep 3": 3.15}
{"predicted target": "CG7029", "dsRNA": "DRSC16177", "Wolbachia per cell robust z, rep 1": 0.667, "Wolbachia per cell robust z, rep 2": 1.18, "Wolbachia per cell robust z, rep 3": -0.314}
{"predicted target": "CG7029", "dsRNA": "DRSC23898", "Wolbachia per cell robust z, rep 1": 0.403, "Wolbachia per cell robust z, rep 2": -0.0834, "Wolbachia per cell robust z, rep 3": 2.75}

Ordered by “Wolbachia per cell robust z, rep 1” (highest first): some entries from above.
{"predicted target": "CG33467", "dsRNA": "DRSC22651", "Wolbachia per cell robust z, rep 1": 0.0877, "Wolbachia per cell robust z, rep 2": 0.551, "Wolbachia per cell robust z, rep 3": -0.606}
{"predicted target": "CG33467", "dsRNA": "DRSC05525", "Wolbachia per cell robust z, rep 1": -0.777, "Wolbachia per cell robust z, rep 2": 0.536, "Wolbachia per cell robust z, rep 3": -0.576}
